According to patent publication US20240109955A1 (published 2024):

What was measured:
Assay in all cases: cell-based or functional assay
[1] = target: SARS-CoV-2 Omicron variant BF.7 spike protein (SARS-CoV-2)
[2] = target: SARS-CoV-2 Delta variant spike protein (SARS-CoV-2)
[3] = target: SARS-CoV-2 Omicron variant B.1.1.529 spike protein (SARS-CoV-2)
[4] = target: SARS-CoV-2 Omicron variant XBB spike protein (SARS-CoV-2)
[5] = target: SARS-CoV-2 Omicron variant BQ.1 spike protein (SARS-CoV-2)
[6] = target: SARS-CoV-2 Omicron variant BQ.1.1 spike protein (SARS-CoV-2)
[7] = target: SARS-CoV-2 spike protein, Delta variant (SARS-CoV-2)
[8] = target: SARS-CoV-2 spike protein, Omicron variant CH.1.1 (SARS-CoV-2)
[9] = target: SARS-CoV-2 spike protein, Omicron variant BQ.1.1 (SARS-CoV-2)
[10] = target: SARS-CoV-2 spike protein, Omicron variant BQ.1 (SARS-CoV-2)
[11] = target: SARS-CoV-2 spike protein, Omicron variant XBB (SARS-CoV-2)
[12] = target: SARS-CoV-2 spike protein, Omicron variant BA.4/5 (SARS-CoV-2)
[13] = target: SARS-CoV-2 spike protein, Omicron variant XBB1.5 (SARS-CoV-2)
[14] = target: SARS-CoV-2 spike protein, Omicron variant BA.2.75.2 (SARS-CoV-2)
[15] = target: SARS-CoV-2 Omicron variant B.1.1.529 spike protein (SARS-CoV-2, UniProt P0DTC2 14-1273)

B1: MX1024 (bispecific antibody)
chain: EIVMTQSPAILSVSPGERATLSCRASQSVAINLAWYQQKPGQAPRLLIYAASSRATGIPGRFSGSGSETNFTLTISSLQSGDFAVYYCQQYITWPPSYTFGQGTKLEIKGGSSGDTVMTQSPLSLPVTPGEPASISCRSSQSLLNSNGYNYLDWYVQKPGQSPQLLIYLGSNRASGVPDRFSGSGSGTDFTLKISRVEAEDVGVYYCMQPLQTPLFTFGPGTKVEIKGGGGSGGSGSGGGGSASGSGQVTLRESGPALVKPTQTLTLTCTFSGFSLSTRGVCVSWIRQPPGKALEWLAFIDWDDDKYYNTSLKTRLTISKDTSKNQVVLTMTNVHPVDTATYYCARISSHHGSSWCTTFDYWGQGALVTVSAGGSSGEVQLVESGGALIQPGGSLRLSCAASGIIVSANYMSWVRQAPGKGLEWVSVIYSGGSTFYADSVKGRFTISRDNSKNTLYLEMNSLRAEDTAVYYCARDAPILGVSDWGQGTLVTVSSASGGSGDKTHTCPPCPAPELLGGPSVFLFPPKPKDTLMISRTPEVTCVVVDVSHEDPEVKFNWYVDGVEVHNAKTKPREEQYNSYVVSVLTVLHQDWLNGKEYKCKVSNKALPAPIEKTISKAKGQPREPQVYTLPPSRDELTKNQVSLTCLVKGFYPSDIAVEWESNGQPENNYKTTPPVLDSDGSFFKKLTVDKSRWQQGNVFSCSVLHEALHSHYTQKSLSLSPG
IC50, pseudovirus neutralization [1]: 3.12 ng/mL | IC80, pseudovirus neutralization [1]: 12.5 ng/mL | IC50, pseudovirus neutralization [2]: 32.9 ng/mL | IC80, pseudovirus neutralization [2]: 37.1 ng/mL | IC50, pseudovirus neutralization [3]: 1.63 ng/mL | IC80, pseudovirus neutralization [3]: 5.44 ng/mL | IC50, pseudovirus neutralization [4]: 10.5 ng/mL | IC80, pseudovirus neutralization [4]: 12.9 ng/mL | IC50, pseudovirus neutralization [5]: 17.6 ng/mL | IC80, pseudovirus neutralization [5]: 37.1 ng/mL | IC50, pseudovirus neutralization [6]: 12.1 ng/mL | IC80, pseudovirus neutralization [6]: 16.9 ng/mL

B2: MX1069 (other)
chain 1: QTVVTQEPSFSVSPGGTVTLTCGLSSGSVSTAYFPSWYQQTPGQAPRTLIYGTNTRSSGVPDRFSGSILGNKAALTITGAQADDESDYYCVLYMGRGIVVFGGGTKLTVLGGSSGEIVLTQSPGTLSLSPGETATLSCRASQSFSSDLAWYQQKPGQAPRLLIYGASSRATGIPDRFSGSGSGTDFTLTISRLEPADFAVYYCQQYGSSPPVTFGGGTKVEIKGGGGSGGSGSGGGGSASGSGEVQLVESGGGLIQPGGSLRLSCAASGVIVSYNYMNWVRQAPGKGLEWVSVIYSGGSTFYADSVRGRFTISRDNSKNTLYLQMNSLRAEDTAVYYCARDLGPAGAFDIWGLGTMVTVSSGGSSGQVQLVESGGGVVQPGRSLRLSCAASGFTLSSYGMHWVRQAPGKGLEWVAVISYDGSNKYYVDSVKGRFTISRDNSKNTLYLQMNSLRAEDTAVYYCRWAYWELLPDYYYGMDVWGQGTTVTVSSASGGSGDKTHTCPPCPAPELLGGPSVFLFPPKPKDTLMISRTPEVTCVVVDVSHEDPEVKFNWYVDGVEVHNAKTKPREEQYNSYVVSVLTVLHQDWLNGKEYKCKVSNKALPAPIEKTISKAKGQPREPQVYTLPPCRDELTKNQVSLWCLVKGFYPSDIAVEWESNGQPENNYKTTPPVLDSDGSFFKKLTVDKSRWQQGNVFSCSVLHEALHSHYTQKSLSLSPG
chain 2: EIVLTQSPGTLSLSPGETATLSCRASQSFSSDLAWYQQKPGQAPRLLIYGASSRATGIPDRFSGSGSGTDFTLTISRLEPADFAVYYCQQYGSSPPVTFGGGTKVEIKGGSSGDTVMTQSPLSLPVTPGEPASISCRSSQSLLNSNGYNYLDWYVQKPGQSPQLLIYLGSNRASGVPDRFSGSGSGTDFTLKISRVEAEDVGVYYCMQPLQTPLFTFGPGTKVEIKGGGGSGGSGSGGGGSASGSGQVTLRESGPALVKPTQTLTLTCTFSGFSLSTRGVCVSWIRQPPGKALEWLAFIDWDDDKYYNTSLKTRLTISKDTSKNQVVLTMTNVHPVDTATYYCARISSHHGSSWCTTFDYWGQGALVTVSAGGSSGEVQLVESGGGLIQPGGSLRLSCAASGVIVSYNYMNWVRQAPGKGLEWVSVIYSGGSTFYADSVRGRFTISRDNSKNTLYLQMNSLRAEDTAVYYCARDLGPAGAFDIWGLGTMVTVSSASGGSGDKTHTCPPCPAPELLGGPSVFLFPPKPKDTLMISRTPEVTCVVVDVSHEDPEVKFNWYVDGVEVHNAKTKPREEQYNSYVVSVLTVLHQDWLNGKEYKCKVSNKALPAPIEKTISKAKGQPREPQVCTLPPSRDELTKNQVSLSCAVKGFYPSDIAVEWESNGQPENNYKTTPPVLDSDGSFFLVSKLTVDKSRWQQGNVFSCSVLHEALHSHYTQKSLSLSPG
IC50, pseudovirus neutralization [7]: 40.1 ng/mL | IC80, pseudovirus neutralization [7]: 47.6 ng/mL | IC50, pseudovirus neutralization [8]: 27.1 ng/mL | IC80, pseudovirus neutralization [8]: 104 ng/mL | IC50, pseudovirus neutralization [9]: 1.89 ng/mL | IC80, pseudovirus neutralization [9]: 6.5 ng/mL | IC50, pseudovirus neutralization [10]: 0.83 ng/mL | IC80, pseudovirus neutralization [10]: 3.07 ng/mL | IC50, pseudovirus neutralization [11]: 2.48 ng/mL | IC80, pseudovirus neutralization [11]: 5.2 ng/mL | IC50, pseudovirus neutralization [12]: 1.47 ng/mL | IC80, pseudovirus neutralization [12]: 2.44 ng/mL | IC50, pseudovirus neutralization [13]: 34.8 ng/mL | IC80, pseudovirus neutralization [13]: 65.5 ng/mL | IC50, pseudovirus neutralization [14]: 1.81 ng/mL | IC80, pseudovirus neutralization [14]: 3.33 ng/mL

B3: MX1047 (bispecific antibody)
chain 1: DTVMTQSPLSLPVTPGEPASISCRSSQSLLNSNGYNYLDWYVQKPGQSPQLLIYLGSNRASGVPDRFSGSGSGTDFTLKISRVEAEDVGVYYCMQPLQTPLFTFGPGTKVEIKGGSSGEIVLTQSPGTLSLSPGERATLSCRASQSVSSSYLAWYQQKPGQAPRLLIYSASSRATGIPDRFSGSGSGTDFTLTISRLEPEDFAVYFCQQYVGLTGWTFGQGTKVEIKGGGGSGGSGSGGGGSASGSGQMQLVQSGPEVKKPGTSVKVSCKASGFTFTSSAVQWVRQRQRLEWIGWIVVGSGNTNYAQKFQERVTITRDMSTSTAYMELSSLRSEDTAVYYCAAPNCSNVVCYDGFDIWGQGTMVTVSSGGSSGQVTLRESGPALVKPTQTLTLTCTFSGFSLSTRGVCVSWIRQPPGKALEWLAFIDWDDDKYYNTSLKTRLTISKDTSKNQVVLTMTNVHPVDTATYYCARISSHHGSSWCTTFDYWGQGALVTVSAASGGSGDKTHTCPPCPAPELLGGPSVFLFPPKPKDTLMISRTPEVTCVVVDVSHEDPEVKFNWYVDGVEVHNAKTKPREEQYNSYVVSVLTVLHQDWLNGKEYKCKVSNKALPAPIEKTISKAKGQPREPQVYTLPPSRDELTKNQVSLTCLVKGFYPSDIAVEWESNGQPENNYKTTPPVLDSDGSFFKKLTVDKSRWQQGNVFSCSVLHEALHSHYTQKSLSLSPG
chain 2: EIVLTQSPGTLSLSPGERATLSCRASQSVSSSYLAWYQQKPGQAPRLLIYSASSRATGIPDRFSGSGSGTDFTLTISRLEPEDFAVYFCQQYVGLTGWTFGQGTKVEIKGGSSGQTVVTQEPSFSVSPGGTVTLTCGLSSGSVSTAYFPSWYQQTPGQAPRTLIYGTNTRSSGVPDRFSGSILGNKAALTITGAQADDESDYYCVLYMGRGIVVFGGGTKLTVLGGGGSGGSGSGGGGSASGSGQVQLVESGGGVVQPGRSLRLSCAASGFTLSSYGMHWVRQAPGKGLEWVAVISYDGSNKYYVDSVKGRFTISRDNSKNTLYLQMNSLRAEDTAVYYCRWAYWELLPDYYYGMDVWGQGTTVTVSSGGSSGQMQLVQSGPEVKKPGTSVKVSCKASGFTFTSSAVQWVRQRQRLEWIGWIVVGSGNTNYAQKFQERVTITRDMSTSTAYMELSSLRSEDTAVYYCAAPNCSNVVCYDGFDIWGQGTMVTVSSASGGSGDKTHTCPPCPAPELLGGPSVFLFPPKPKDTLMISRTPEVTCVVVDVSHEDPEVKFNWYVDGVEVHNAKTKPREEQYNSYVVSVLTVLHQDWLNGKEYKCKVSNKALPAPIEKTISKAKGQPREPQVYTLPPSRDELTKNQVSLTCLVKGFYPSDIAVEWESNGQPENNYKTTPPVLDSDGSFFKKLTVDKSRWQQGNVFSCSVLHEALHSHYTQKSLSLSPG
IC50, pseudovirus neutralization [15]: 4.04 ng/mL | IC80, pseudovirus neutralization [15]: 4.6 ng/mL

B4: MX1049 (bispecific antibody)
chain: EIVLTQSPGTLSLSPGERATLSCRASQSVSSSYLAWYQQKPGQAPRLLIYSASSRATGIPDRFSGSGSGTDFTLTISRLEPEDFAVYFCQQYVGLTGWTFGQGTKVEIKGGSSGDTVMTQSPLSLPVTPGEPASISCRSSQSLLNSNGYNYLDWYVQKPGQSPQLLIYLGSNRASGVPDRFSGSGSGTDFTLKISRVEAEDVGVYYCMQPLQTPLFTFGPGTKVEIKGGGGSGGSGSGGGGSASGSGQVTLRESGPALVKPTQTLTLTCTFSGFSLSTRGVCVSWIRQPPGKALEWLAFIDWDDDKYYNTSLKTRLTISKDTSKNQVVLTMTNVHPVDTATYYCARISSHHGSSWCTTFDYWGQGALVTVSAGGSSGQMQLVQSGPEVKKPGTSVKVSCKASGFTFTSSAVQWVRQRQRLEWIGWIVVGSGNTNYAQKFQERVTITRDMSTSTAYMELSSLRSEDTAVYYCAAPNCSNVVCYDGFDIWGQGTMVTVSSASGGSGDKTHTCPPCPAPELLGGPSVFLFPPKPKDTLMISRTPEVTCVVVDVSHEDPEVKFNWYVDGVEVHNAKTKPREEQYNSYVVSVLTVLHQDWLNGKEYKCKVSNKALPAPIEKTISKAKGQPREPQVYTLPPSRDELTKNQVSLTCLVKGFYPSDIAVEWESNGQPENNYKTTPPVLDSDGSFFKKLTVDKSRWQQGNVFSCSVLHEALHSHYTQKSLSLSPG
IC50, pseudovirus neutralization [15]: 3.27 ng/mL | IC80, pseudovirus neutralization [15]: 7.16 ng/mL
